{"source": "ChEMBL document CHEMBL3596151", "about": "“Elucidation of the in vitro and in vivo activities of bridged 1,2,4-trioxolanes, bridged 1,2,4,5-tetraoxanes, tricyclic monoperoxides, silyl peroxides, and hydroxylamine derivatives against Schistosoma mansoni” (Bioorg Med Chem, 2015)", "tested_on": "Schistosoma mansoni", "test": "Antischistosomal activity against newly transformed Schistosoma mansoni cercariae assessed as decrease in viability after 72 hrs by microscopic analysis"}
{"smiles": "C[C@]12C[C@](C)(OO1)OO2", "values": [{"measurement": "IC50", "result": 20.2, "unit": "µM"}]}
